The values below come from patent US20240336672A1.

Holding throughout (details): remark: other sources report otherwise
In assay [1] the target is SARS-CoV-2 RBD (B.1.1.7) domain (SARS-CoV-2). In words: ELISA.
Assay [2] has as its target SARS-CoV-2 RBD (P.1) domain (SARS-CoV-2). In words: ELISA. (ELISA stands for enzyme-linked immunosorbent assay.)
Assay [3] has as its target SARS-CoV-2 RBD domain, Wuhan (SARS-CoV-2). In words: ELISA.
Assay [4] addresses T1, SARS-CoV-2 Spike ectodomain (tri-S), Wuhan (SARS-CoV-2), P0DTC2. In words: ELISA.
Assay [5] addresses SARS-CoV-2 delta plus variant RBD (SARS-CoV-2). In words: ELISA.
Assay [6] concerns the target T2, SARS-CoV-2 delta variant B.1.617.2/3 RBD domain (SARS-CoV-2). In words: ELISA.
The target of assay [7] is T3, SARS-CoV-2 kappa variant B.1.617.1/3 RBD domain (SARS-CoV-2). The experiment in a line: ELISA.
Assay [8] addresses SARS-CoV-2 Spike (S) protein on cells (S-Flow assay) (SARS-CoV-2), P0DTC2. The experiment in a line: flow cytometry (Mock 2.5). In general terms: Flow cytometry measures light scatter and fluorescence of single cells or particles in a stream.
In assay [9] the target is T4, SARS-CoV-2 omicron variant B.1.1.529 Spike ectodomain (tri-S, HexaPro) (SARS-CoV-2), P0DTC2.
For assay [10], the target named is SARS-CoV-2 RBD (B.1.351) domain (SARS-CoV-2). In words: ELISA; unit from paragraph 452, none printed in the heatmap.
In assay [11] the target is T4, SARS-CoV-2 omicron variant B.1.1.529 …. The description is as above.
The target of assay [12] is T1, SARS-CoV-2 Spike ectodomain (tri-S), …. In words: tri-S-ACE2 competition ELISA; unit from legend paragraph 348.
The target of assay [13] is SARS-CoV-2 RBD (B.1.1.7) domain (SARS-CoV-2). In words: ELISA. Details: unit not given beside the values.
In assay [14] the target is SARS-CoV-2 RBD (B.1.351) domain (SARS-CoV-2). The experiment in a line: ELISA. More on the design: unit not given beside the values.
Assay [15] has as its target SARS-CoV-2 RBD (P.1) domain (SARS-CoV-2). The experiment in a line: ELISA. More on the design: unit not given beside the values.
Assay [16] has as its target SARS-CoV-2 RBD domain, Wuhan (SARS-CoV-2). The experiment in a line: ELISA. More on the design: unit not given beside the values.
Assay [17] addresses T1, SARS-CoV-2 Spike ectodomain (tri-S), …. In words: ELISA. Details: unit not given beside the values.
In assay [18] the target is SARS-CoV-2 delta plus variant RBD (SARS-CoV-2). In words: ELISA. More on the design: unit not given beside the values.
Assay [19] addresses T2, SARS-CoV-2 delta variant B.1.617.2/3 …. The experiment in a line: ELISA. Details: unit not given beside the values.
Assay [20] has as its target T3, SARS-CoV-2 kappa variant B.1.617.1/3 …. In words: ELISA. More on the design: unit not given beside the values.
In assay [21] the target is SARS-CoV-2 RBD (B.1.1.7) domain (SARS-CoV-2). In words: RBD/ACE2 blocking ELISA.
The target of assay [22] is SARS-CoV-2 RBD (B.1.351) domain (SARS-CoV-2). In words: RBD/ACE2 blocking ELISA.
The target in assay [23] is SARS-CoV-2 RBD (P.1) domain (SARS-CoV-2). The experiment in a line: RBD/ACE2 blocking ELISA.
Assay [24] concerns the target SARS-CoV-2 RBD domain, Wuhan (SARS-CoV-2). In words: RBD/ACE2 blocking ELISA.
Assay [25] has as its target SARS-CoV-2 delta plus variant RBD (SARS-CoV-2). In words: RBD/ACE2 blocking ELISA.
Assay [26] concerns the target T2, SARS-CoV-2 delta variant B.1.617.2/3 …. In words: RBD/ACE2 blocking ELISA.
Assay [27] has as its target T3, SARS-CoV-2 kappa variant B.1.617.1/3 …. In words: RBD/ACE2 blocking ELISA.
The target of assay [28] is T1, SARS-CoV-2 Spike ectodomain (tri-S), …. The experiment in a line: tri-S/ACE2 blocking ELISA.

Some results are limits rather than exact numbers.

B1: CAS (antibody)
chain 1: QVQLVESGGGLVKPGGSLRLSCAASGFTFSDYYMSWIRQAPGKGLEWVSYITYSGSTIYYADSVKGRFTISRDNAKSSLYLQMNSLRAEDTAVYYCARDRGTTMVPFDYWGQGTLVTVSS
chain 2: DIQMTQSPSSLSASVGDRVTITCQASQDITNYLNWYQQKPGKAPKLLIYAASNLETGVPSRFSGSGSGTDFTFTISGLQPEDIATYYCQQYDNLPLTFGGGTKVEIK
Take B1: the OD405nm in assay [1] came out at 3.4; in assay [2], 3.5; in assay [3], 3.2; in assay [4], 3.2; in [5] it was 3.4; in [6] it was 3.4. Moreover, the OD405nm in [7] came to 3.6. Also, the log10 ΔgMFI in assay [8] was found to be 4.5.

B2: Casirivimab (antibody)
heavy chain: QVQLVESGGGLVKPGGSLRLSCAASGFTFSDYYMSWIRQAPGKGLEWVSYITYSGSTIYYADSVKGRFTISRDNAKSSLYLQMNSLRAEDTAVYYCARDRGTTMVPFDYWGQGTLVTVSS
light chain: DIQMTQSPSSLSASVGDRVTITCQASQDITNYLNWYQQKPGKAPKLLIYAASNLETGVPSRFSGSGSGTDFTFTISGLQPEDIATYYCQQYDNLPLTFGGGTKVEIK
Consider B2, for which the IC50 (as a rule, the midpoint of a concentration-inhibition curve) was more than 2 µg/mL in assay [9] and 0.2 µg/mL in assay [12]. Further, the concentration giving a half-maximal response (EC50) (in general, the concentration needed to bring the measured effect to its halfway point) stood at 0.009 µg/mL in [10] and 0.804 µg/mL in assay [11].

B3: REGN10933 (parental IgG1 version) (antibody, V domains shown)
VH: QVQLVESGGGLVKPGGSLRLSCAASGFTFSDYYMSWIRQAPGKGLEWVSYITYSGSTIYYADSVKGRFTISRDNAKSSLYLQMNSLRAEDTAVYYCARDRGTTMVPFDYWGQGTLVTVSS
VL: DIQMTQSPSSLSASVGDRVTITCQASQDITNYLNWYQQKPGKAPKLLIYAASNLETGVPSRFSGSGSGTDFTFTISGLQPEDIATYYCQQYDNLPLTFGGGTKVEIK
For B3, the AUC in assay [13], in assay [14], in assay [15], in assay [16], in [17] and in [18] was 3 in each case. The AUC in [19] stood at 3; in assay [20] it was 4. Moreover, the % binding inhibition came to 91% in [21]; 28% in assay [22]; 0% in assay [23]; 97% in assay [24]; 93% in assay [25]; 97% in assay [26]. The % binding inhibition stood at 94% in assay [27] and 96% in assay [28].

B4: Regdanvimab (antibody)
heavy chain: QITLKESGPTLVKPTQTLTLTCSFSGFSLSTSGVGVGWIRQPPGKALEWLALIDWDDNKYHTTSLKTRLTISKDTSKNQVVLTMTNMDPVDTATYYCARIPGFLRYRNRYYYYGMDVWGQGTTVTVSS
light chain: ELVLTQPPSVSAAPGQKVTISCSGSSSNIGNNYVSWYQQLPGTAPKLLIYDNNKRPSGIPDRFSGSKSGTSATLGITGLQTGDEADYYCGTWDSSLSAGVFGGGTELTVL
As to B4, the EC50 in assay [10] is 0.008 µg/mL.
